A mixed list of measured activities; the numbers were collected in NIAID ChemDB.

All rows: tests on isolated targets; organism: Hepatitis C virus; target: NS3/NS4A protease; endpoint: IC50

a–b is a range or a potency band. Conditions beyond the fields shown may differ between rows. ICn: concentration for n% inhibition.

C=C[C@H]1C[C@@]1(NC(=O)[C@@H]1C[C@@H](Oc2cc(-c3ccccc3)nc3cc(OC)ccc23)CN1C(=O)[C@@H](NC(=O)OC(C)(C)C)C(C)(C)C)C(=O)NS(=O)(=O)C1(CC#CCC)CC1 ; strain or isolate: BMS ; value: <0.05 µM
C=CC1CC1(NC(=O)[C@@H]1C[C@@H](OC(=O)Nc2ccccc2N2CCCCC2)CN1C(=O)[C@@H](NC(=O)OC(C)(C)C)C(C)(C)C)C(=O)NS(=O)(=O)C1CC1 ; strain or isolate: BMS/H77C/J416S ; value: <0.1 µM
C=C[C@H]1C[C@@]1(NC(=O)[C@@H]1C[C@@H](Oc2cc(-c3ccccc3)nc3cc(OC)ccc23)CN1C(=O)[C@@H](NC(=O)OC(C)(C)C)C(C)C)C(=O)NS(=O)(=O)C1(CCOC)CC1 ; strain or isolate: BMS ; value: <0.05 µM
CSCC[C@H](NC(=O)[C@H](CCC(=O)O)NC(=O)[C@H](CC(=O)O)NC(=O)CCC(=O)O)C(=O)N[C@@H](CCC(=O)O)C(=O)N[C@@H](CCC(=O)O)C(=O)N[C@H](C=O)CC(F)(F)F ; value: 20 µM
C=C[C@@H]1C[C@]1(NC(=O)[C@@H]1C[C@@H](Oc2cc(-c3ccccc3)nc3cc(OC)ccc23)CN1C(=O)[C@@H](NC(=O)OCc1ccccc1)C(C)(C)C)C(=O)NS(=O)(=O)C1CC1 ; strain or isolate: BMS ; value: <0.05 µM
C=CC1CC1(NC(=O)[C@@H]1C[C@@H](OC(=O)Nc2ccccc2[N+](=O)[O-])CN1C(=O)[C@@H](NC(=O)OC(C)(C)C)C(C)(C)C)C(=O)NS(=O)(=O)C1CC1 ; strain or isolate: BMS/H77C/J416S ; value: <0.1 µM
C=C[C@@H]1C[C@]1(NC(=O)[C@@H]1C[C@@H](Oc2cc(-c3ccccc3)nc3cc(OC)ccc23)CN1C(=O)[C@@H](NC(=O)OC(C)(C)C)C(C)(C)C)C(=O)NS(=O)(=O)c1ccccc1C ; strain or isolate: BMS ; value: <0.05 µM
C=CC1CC1(NC(=O)[C@@H]1C[C@@H](OC(=O)Nc2ccccc2C(=O)OCC)CN1C(=O)[C@@H](NC(=O)OC)C(C)(C)C)C(=O)NS(=O)(=O)C1CC1 ; strain or isolate: BMS/H77C/J416S ; value: <0.1 µM
C=CC1C[C@@]1(NC(=O)[C@@H]1C[C@@H](Oc2cc(-c3ccccc3)nc3cc(OC)ccc23)CN1C(=O)[C@@H](NC(=O)COC)C(C)(C)C)C(=O)NS(=O)(=O)C1(Cc2ccccc2)CC1 ; strain or isolate: BMS ; value: 0.05–0.5 µM
CC[C@@H](C=O)NC(=O)[C@H](CC(C)C)NC(=O)[C@@H](NC(=O)[C@H](Cc1ccccc1C)NC(=O)[C@H](CCC(=O)O)NC(=O)[C@H](CC(=O)O)NC(=O)CCC(=O)O)C(C)(C)C ; value: 0.54 µM
C=C[C@@H]1C[C@]1(NC(=O)[C@@H]1C[C@@H](Oc2cc(-c3ccccc3)nc3cc(OC)ccc23)CN1C(=O)[C@@H](NC(=O)OC(C)(C)C)C(C)(C)C)C(=O)NS(=O)(=O)c1ccc(C(C)(C)C)cc1 ; strain or isolate: BMS ; value: <0.5 µM
C=CC1CC1(NC(=O)[C@@H]1C[C@@H](OC(=O)Nc2ccccc2C(C)=O)CN1C(=O)[C@@H](NC(=O)OC(C)(C)C)C(C)(C)C)C(=O)NS(=O)(=O)C1CC1 ; strain or isolate: BMS/H77C/J416S ; value: <0.1 µM
C=C[C@H]1C[C@@]1(NC(=O)[C@@H]1C[C@@H](Oc2cc(-c3ccccc3)nc3cc(OC)ccc23)CN1C(=O)[C@@H](NC(=O)OCC1CC1)C(C)(C)C)C(=O)NS(=O)(=O)C1(Cc2ccccc2)CC1 ; strain or isolate: BMS ; value: <0.05 µM
C=CC1CC1(NC(=O)[C@@H]1C[C@@H](OC(=O)Nc2ccccc2C(=O)OCCCC)CN1C(=O)[C@@H](NC(=O)OC(C)(C)C)C(C)(C)C)C(=O)NS(=O)(=O)C1CC1 ; strain or isolate: BMS/H77C/J416S ; value: <0.1 µM
C=C[C@@H]1C[C@]1(NC(=O)[C@@H]1C[C@@H](Oc2cc(-c3ccccc3)nc3cc(OC)ccc23)CN1C(=O)[C@@H](Nc1ccncc1[N+](=O)[O-])C(C)(C)C)C(=O)NS(=O)(=O)C1CC1 ; strain or isolate: BMS ; value: <5 µM
C=CC1C[C@@]1(NC(=O)[C@@H]1C[C@@H](Oc2cc(-c3ccccc3)nc3cc(OC)ccc23)CN1C(=O)[C@@H](NC(=O)OC1(C(=O)OCC)CC1)C(C)(C)C)C(=O)NS(=O)(=O)C1(Cc2ccccc2)CC1 ; strain or isolate: BMS ; value: 0.05–0.5 µM
C=C[C@@H]1C[C@]1(NC(=O)[C@@H]1C[C@@H](Oc2cc(-c3ccccc3)nc3cc(OC)ccc23)CN1C(=O)[C@@H](NC(=O)OC(C)(C)C)C(C)(C)C)C(=O)NS(=O)(=O)c1cccc([N+](=O)[O-])c1 ; strain or isolate: BMS ; value: <0.05 µM
C=C[C@H]1C[C@@]1(NC(=O)[C@@H]1C[C@@H](Oc2cc(-c3ccccc3)nc3cc(OC)ccc23)CN1C(=O)[C@@H](NC(=O)OC1CCCC1)C(C)(C)C)C(=O)NS(=O)(=O)C1(C)CC1 ; strain or isolate: BMS ; value: <0.05 µM
C=C[C@@H]1C[C@]1(NC(=O)[C@@H]1C[C@@H](Oc2cc(-c3ccccc3)nc3cc(OC)ccc23)CN1C(=O)[C@@H](NC(=O)OC(C)(C)C)C(C)(C)C)C(=O)NS(=O)(=O)c1ccc(Br)cc1 ; strain or isolate: BMS ; value: <0.5 µM
C#CC[C@@H](C=O)C(=O)[C@H](CCC(=O)O)NC(=O)[C@@H](CC(C)C)NC(=O)[C@H](CCSC)NC(=O)[C@H](CCC(=O)O)NC(=O)[C@H](CC(=O)O)NC(=O)CCC(=O)O ; value: 2 µM
C=CC1CC1(NC(=O)[C@@H]1C[C@@H](Oc2cc(-c3ccccc3)nc3cc(OC)ccc23)CN1C(=O)[C@H](CC1CCCCC1)NC(=O)OC(C)(C)C)C(=O)NS(C)(=O)=O ; strain or isolate: BMS ; value: <0.5 µM
CC[C@H](C)[C@H](NC(=O)[C@H](CCSC)NC(=O)[C@H](CCC(=O)O)NC(=O)[C@H](CC(=O)O)NC(=O)CCC(=O)O)C(=O)N[C@@H](CCC(=O)O)C(=O)N[C@H](C=O)CC(F)(F)F ; value: 2 µM
C=CC1CC1(NC(=O)[C@@H]1C[C@@H](Oc2cc(-c3ccccc3)nc3cc(OC)ccc23)CN1C(=O)[C@@H](NC(=O)OC(C)(C)C)C(C)(C)C)C(=O)NS(=O)(=O)C1(COC)CC1 ; strain or isolate: BMS ; value: <0.05 µM
C=C[C@@H]1C[C@]1(NC(=O)[C@@H]1C[C@@H](Oc2cc(-c3ccccc3)nc3cc(OC)ccc23)CN1C(=O)[C@@H](NC(=O)OC(C)(C)C)C(C)(C)C)C(=O)NS(=O)(=O)c1ccc(F)cc1 ; strain or isolate: BMS ; value: <0.05 µM

For reference, 2 entries again:

compound | strain or isolate | value
C=CC1CC1(NC(=O)[C@@H]1C[C@@H](OC(=O)Nc2ccccc2C(C)=O)CN1C(=O)[C@@H](NC(=O)OC(C)(C)C)C(C)(C)C)C(=O)NS(=O)(=O)C1CC1 | BMS/H77C/J416S | <0.1 µM
C=CC1C[C@@]1(NC(=O)[C@@H]1C[C@@H](Oc2cc(-c3ccccc3)nc3cc(OC)ccc23)CN1C(=O)[C@@H](NC(=O)OC1(C(=O)OCC)CC1)C(C)(C)C)C(=O)NS(=O)(=O)C1(Cc2ccccc2)CC1 | BMS | 0.05–0.5 µM